Results of unrelated studies side by side (data: NIAID ChemDB).

Common to all: toxicity to cultured cells; cells: CEM; read-out: CC50

Lines come from different laboratories, so protocols vary. Blank or dashed fields: not listed here. CCn: concentration that lowers growth or viability of the cells by n%.

compound	read by	value
COc1ccc(C2C(Cl)C(=O)N2NC(=O)c2ccccc2O)cc1	-	>144 µM
Cc1cn([C@H]2C[C@H](N=[N+]=[N-])[C@@H](COC(=O)CN3CCN(c4cc5c(cc4F)c(=O)c(C(=O)O)cn5C4CC4)CC3)O2)c(=O)[nH]c1=O	XTT	144 µM
CCN(CCO)CCCC(C)Nc1ccnc2cc(Cl)ccc12	-	>1000 µg/mL
Nc1nc(Cl)c2ncn(/C=C3/C[C@H]3CO)c2n1	-	70 µM
Cc1cn([C@H]2C=C[C@@H](COP(=O)(O)OP(=O)(O)O)O2)c(=O)[nH]c1=O	-	>20 µM
Cc1cn([C@@H]2O[C@H](CO)[C@@H](N=[N+]=[N-])[C@@H]2F)c(=O)[nH]c1=O	-	2.6 µg/mL
Cc1cccc2c1OP(=O)(OC[C@@H]1C=C[C@H](n3cnc4c(NC5CC5)nc(N)nc43)C1)OC2	-	103 µM
CCCNC(=O)c1cc(C)ccc1NC(=O)C12CC3CC(CC(C3)C1)C2	-	>200 µM
CCCCCCCCCCCCCC(=O)OP(=O)(O)OP(=O)(O)OP(=O)(O)OC[C@@H]1C=C[C@H](n2cc(C)c(=O)[nH]c2=O)O1	-	>20 µM
Nc1nc(=O)n([C@@H]2CO[C@H](CO)S2)cc1F	-	>500 µM
CC(C)(C)[Si](C)(C)OC[C@H]1O[C@@H](n2nncc2CCCCl)[C@H](O[Si](C)(C)C(C)(C)C)C12OS(=O)(=O)C=C2N	-	>0.82 µM
Nc1nc(NC2CC2)c2ncn([C@H]3C=C[C@@H](CO)C3)c2n1	-	542 µM
C=CCOC(=O)CCCCCCC	-	357 µM
CN(C)C(=O)c1cnnn1[C@@H]1O[C@H](CO[Si](C)(C)C(C)(C)C)C2(OS(=O)(=O)C=C2N)[C@H]1O[Si](C)(C)C(C)(C)C	-	>0.32 µM
Cc1ccc(NC(=O)C23CC4CC(CC(C4)C2)C3)c(C(=O)NN)c1	-	38.9 µM
COC(=O)C(C)NP(=O)(OC[C@H]1C/C1=C/n1cnc2c(N)nc(N)nc21)Oc1ccccc1	-	20 µM
COc1ccc2c(c1)COP(=O)(OC[C@@H]1C=C[C@H](n3cnc4c(NC5CC5)nc(N)nc43)C1)O2	-	141 µM
COc1nc(N)nc2c1ncn2/C=C1/C[C@@H]1CO	-	98 µM
Nc1nc(NC2CC2)c2ncn([C@H]3C=C[C@@H](COP4(=O)OCc5cc(Cl)ccc5O4)C3)c2n1	-	113 µM
Nc1ccn([C@H]2CC[C@@H](CO)O2)c(=O)n1	-	>1 µM
O=c1ccn([C@@H]2O[C@H](CO)C[C@@H]2F)c(=O)[nH]1	-	57 µg/mL
CC(C)(C)[Si](C)(C)OC[C@H]1O[C@@H](n2cc([Si](C)(C)C)nn2)[C@H](O[Si](C)(C)C(C)(C)C)C12OS(=O)(=O)C=C2N	-	>2.8 µM
Cc1ccc(NC(=O)C23CC4CC(CC(C4)C2)C3)c(C(=O)N/N=C/c2ccc(C)o2)c1	-	>200 µM
Cc1cn([C@@H]2O[C@H](CO[Si](C)(C)C(C)(C)C)C3(OS(=O)(=O)C=C3N)[C@H]2O[Si](C)(C)C(C)(C)C)c(=O)n(C)c1=O	-	>82.8 µM
Nc1ncnc2c1ncn2CCOCP(=O)(O)O	-	69 µM
Cc1cn([C@H]2C=C[C@@H](COP(=O)(O)OP(=O)(O)OP(=O)(O)O)O2)c(=O)[nH]c1=O	-	>20 µM
Cc1cn([C@@H]2O[C@H](CO[Si](C)(C)C(C)(C)C)C3(OS(=O)(=O)C=C3N)[C@H]2O[Si](C)(C)C(C)(C)C)nn1	-	>1.4 µM
Nc1nc(=O)n([C@@H]2CS[C@H](CO)O2)cc1F	-	>10 µM
CCn1c(=O)c(C)cn([C@@H]2O[C@H](CO[Si](C)(C)C(C)(C)C)C3(OS(=O)(=O)C=C3N)[C@H]2O[Si](C)(C)C(C)(C)C)c1=O	-	>80.9 µM
Nc1nc(=O)n([C@H]2CO[C@@H](CO)S2)cc1F	-	>500 µM
Nc1nc2c(ncn2COCCOP2(=O)OCc3ccccc3O2)c(=O)[nH]1	-	165 µM
O=C(NN1C(=O)C(Cl)C1c1ccc(O)cc1)c1ccccc1O	-	10.3 µM
Nc1nc(NC2CC2)c2ncn(/C=C3/C[C@H]3CO)c2n1	-	95 µM
NNC(=O)c1cc(Cl)ccc1NC(=O)C12CC3CC(CC(C3)C1)C2	-	15.1 µM
Nc1nc2c(ncn2[C@@H]2O[C@H](CO)[C@@H](O)[C@H]2O)c(=O)o1	MTT	440 µg/mL
Nc1ccn([C@@H]2O[C@H](CO)C[C@@H]2F)c(=O)n1	-	61.9 µg/mL
Cc1cn([C@@H]2O[C@H](CO[Si](C)(C)C(C)(C)C)[C@@]3(NS(=O)(=O)C=C3N)[C@H]2O[Si](C)(C)C(C)(C)C)c(=O)[nH]c1=O	-	19.1 µM
Cc1cn([C@H]2C[C@H](N=[N+]=[N-])[C@@H](COC(=O)CNNC(=O)c3ccncc3)O2)c(=O)[nH]c1=O	XTT	>1000 µM
Cc1cn([C@@H]2O[C@H](CO[Si](C)(C)C(C)(C)C)[C@]3(C(N)=CS(=O)(=O)N3C)[C@H]2O[Si](C)(C)C(C)(C)C)c(=O)n(C)c1=O	-	≥250 µM
Nc1nc2c(ncn2[C@@H]2C[C@H](CO)[C@@H](O)[C@H]2O)c(=O)o1	MTT	>500 µg/mL
COC(=O)C(C)NP(=O)(OC[C@@H]1C/C1=C/n1cnc2c(N)nc(N)nc21)Oc1ccccc1	-	30 µM
C=CCOC(=O)CCC	-	500 µM
CCCCCCCCCCCCCC(=O)OP(=O)(O)OP(=O)(O)OC[C@@H]1C=C[C@H](n2cc(C)c(=O)[nH]c2=O)O1	-	>50 µM
Cc1cn([C@@H]2O[C@H](CO[Si](C)(C)C(C)(C)C)[C@@]3(OS(=O)(=O)C=C3N)[C@H]2O[Si](C)(C)C(C)(C)C)c(=O)[nH]c1=O	-	16 µM
Cc1cn([C@H]2C=C[C@@H](COP(=O)(O)O)O2)c(=O)[nH]c1=O	-	>20 µM
O=C(NN1C(=O)C(Cl)C1c1ccccc1O)c1ccccc1O	-	8.2 µM
Cc1cn([C@H]2C[C@H](N=[N+]=[N-])[C@@H](COP(=O)(O)OP(=O)(O)OP(=O)(O)O)O2)c(=O)[nH]c1=O	-	>20 µM
Cc1cn([C@@H]2O[C@H](CO[Si](C)(C)C(C)(C)C)C3(OS(=O)(=O)C=C3N)[C@H]2O[Si](C)(C)C(C)(C)C)c(=O)n(C)c1=O	-	≥100 µM
O=C(O)c1ccc2ccc(/C=C/c3ccc(O)c(O)c3)nc2c1O	MTT	>100 µM
CCCCCCCCCCCCCC(=O)OP(=O)(O)OC[C@@H]1C=C[C@H](n2cc(C)c(=O)[nH]c2=O)O1	-	>20 µM
Cc1cn([C@@H]2O[C@H](CO[Si](C)(C)C(C)(C)C)[C@@]3(NS(=O)(=O)C=C3N)[C@H]2O[Si](C)(C)C(C)(C)C)c(=O)n(C)c1=O	-	5.8 µM
[N-]=[N+]=N[C@@H]1[C@H](O)[C@@H](CO)O[C@H]1n1ccc(N)nc1=O	-	<1 µM
Nc1nc2c(ncn2[C@H]2CC[C@@H](CO)O2)c(=O)o1	MTT	>500 µg/mL
Cc1ccc(NC(=O)C23CC4CC(CC(C4)C2)C3)c(C(=O)N/N=C/c2cccs2)c1	-	>200 µM
O=c1[nH]c(=O)n([C@@H]2O[C@H](CO)[C@@H](O)[C@@H]2F)cc1C12B3B4B5B6B(B3B1B42)B1B5C61	-	56.5 µM
COC(=O)c1nnn([C@@H]2O[C@H](CO[Si](C)(C)C(C)(C)C)C3(OS(=O)(=O)C=C3N)[C@H]2O[Si](C)(C)C(C)(C)C)c1C(=O)OC	-	>0.53 µM
O=C(N/N=C/c1cccs1)c1cc(Cl)ccc1NC(=O)C12CC3CC(CC(C3)C1)C2	-	>200 µM

The last 6 rows once more:

[N-]=[N+]=N[C@@H]1[C@H](O)[C@@H](CO)O[C@H]1n1ccc(N)nc1=O ; value: <1 µM
Nc1nc2c(ncn2[C@H]2CC[C@@H](CO)O2)c(=O)o1 ; read by: MTT ; value: >500 µg/mL
Cc1ccc(NC(=O)C23CC4CC(CC(C4)C2)C3)c(C(=O)N/N=C/c2cccs2)c1 ; value: >200 µM
O=c1[nH]c(=O)n([C@@H]2O[C@H](CO)[C@@H](O)[C@@H]2F)cc1C12B3B4B5B6B(B3B1B42)B1B5C61 ; value: 56.5 µM
COC(=O)c1nnn([C@@H]2O[C@H](CO[Si](C)(C)C(C)(C)C)C3(OS(=O)(=O)C=C3N)[C@H]2O[Si](C)(C)C(C)(C)C)c1C(=O)OC ; value: >0.53 µM
O=C(N/N=C/c1cccs1)c1cc(Cl)ccc1NC(=O)C12CC3CC(CC(C3)C1)C2 ; value: >200 µM